Laboratory results published in paper doi:10.1101/2023.12.21.572918 (bioRxiv, 2023).

Molecular target: GPCysRRLL-I53-50A (Lassa virus, strain Josiah)

GPCysRRLL-I53-50A
stoichiometry N: 3
